Experimental findings from patent publication US9061984B2 (University of Louisville Research Foundation, Inc., priority 2008, dated 2015) are described below.

Read-outs that look alike come from different tables or passages of the source.

For series [1], the system named is axenic amastigotes of L. amazonensis (strain MHOM/BR/76/LTB-012). To be noted: for SI: IC50, macrophage/IC50, L. amazonensis, Table 7.
Series [2] has as its system Trypanosoma cruzi (Tulahuen C4). The experiment in a line: In vitro anti-T. cruzi activity (β-galactosidase CPRG colorimetric assay in VERO monolayer). The series is classed as cell-based.
In another series the test system is M. tuberculosis H37Rv. In words: Conventional aerobic (MABA) culture assay, luminescence MIC. Format: cell-based, Mycobacterium tuberculosis. Conditions: VERO vs MABA MIC. A general note: Resazurin is reduced to fluorescent resorufin, in cell work by metabolically active cells.
The mark [3] stands for this setting: IC50, VERO/IC50, T. cruzi, Table 2.
The mark [4] stands for this setting: Selectivity index = IC50, VERO/IC50, T. cruzi, Table 3.

`C[C@@H]1[C@H](O)[C@@H](C)/C=C/C=C/C=C/C=C/C=C/C=C/C=C/[C@H](O[C@@H]2O[C@H](C)[C@@H](O)[C@H](N)[C@@H]2O)C[C@@H]2O[C@](O)(C[C@@H](O)C[C@@H](O)[C@H](O)CC[C@@H](O)C[C@@H](O)CC(=O)O[C@H]1C)C[C@H](O)[C@H]2C(=O)O` [Amphotericin B, reference compound]: the SI in series [1] was 76.0. The “Selectivity Index” value in series [1] (Table 8b) turned out to be 43.5.
For the molecule `COc1ccc(/C=C/C(=O)c2c(O)cc(O)cc2OC)cc1` [Compound I-05, (E)-1-(2,4-Dihydroxy-6-methoxyphenyl)-3-(4-methoxyphenyl)-2-propen-1-one], the SI in series [1] was found to be 16.6.
In series [1], `COc1cc(O)cc(O)c1C(=O)/C=C/c1ccc2c(c1)OCO2` [Compound I-06, (2E)-3-(1,3-Benzodioxol-5-yl)-1-(2,4-dihydroxy-6-methoxyphenyl)-2-propen-1-one] had an SI of 38.3.
Still for that read-out and setting: under `C=CCOc1cc(OC)c(C(=O)/C=C/c2ccccc2)c(OCC=C)c1` [Compound I-08, (2E)-1-[2-Methoxy-4,6-bis(2-propenyloxy)phenyl]-3-(phenyl)-2-propen-1-one] stands 1.6.
In turn, `C=CCOc1cc(OC)c(C(=O)/C=C/c2ccc(OC)cc2)c(OCC=C)c1` [Compound I-10, (2E)-1-[2-Methoxy-4,6-bis(2-propenyloxy)phenyl]-3-(4-methoxyphenyl)-2-propen-1-one] returned an SI in series [1] of 3.4.
The same measure, in the same setting: the value for `C=CCOc1cc(OC)c(C(=O)/C=C/c2cccc(OC)c2)c(OCC=C)c1` [Compound I-11, (2E)-1-[2-Methoxy-4,6-bis(2-propenyloxy)phenyl]-3-(3-methoxyphenyl)-2-propen-1-one] was 1.5; that for `C=CCOc1cc(OC)c(C(=O)/C=C/c2ccc([N+](=O)[O-])cc2)c(OCC=C)c1` [Compound I-13, (2E)-1-[2-Methoxy-4,6-bis(2-propenyloxy)phenyl]-3-(4-nitrophenyl)-2-propen-1-one] was 1.6.
`C=CCOc1cc(OC)c(C(=O)/C=C/c2ccc(Cl)cc2)c(OCC=C)c1` [Compound I-14, (2E)-3-(4-Chlorophenyl)-1-[2-methoxy-4,6-bis(2-propenyloxy)phenyl]-2-propen-1-one] displayed an SI in series [1] of 1.4.
For the molecule `C=CCOc1cc(OC)c(C(=O)/C=C/c2ccccc2F)c(OCC=C)c1` [Compound I-15, (2E)-3-(2-Fluorophenyl)-1-[2-methoxy-4,6-bis(2-propenyloxy)phenyl]-2-propen-1-one], the SI in series [1] is given as 1.4.
Regarding `C=CCOc1cc(OC)c(C(=O)/C=C/c2ccccc2Br)c(OCC=C)c1` [Compound I-16], the SI in series [1] was found to be 0.7; in series [2] (setting [3]) it was 1.01; in series [2] (setting [4]), 1.0.
`C=CCOc1cc(OC)c(C(=O)/C=C/c2cc(OC)c(OC)c(OC)c2)c(OCC=C)c1` [Compound I-20, (2E)-1-[2-Methoxy-4,6-bis(2-propenyloxy)phenyl]-3-(3,4,5-trimethoxyphenyl)-2-propen-1-one] showed an SI in series [1] of 1.5.
Same read-out and setting: the value for `C=CCOc1cc(OC)c(C(=O)/C=C/c2ccc(F)cc2)c(OCC=C)c1` [Compound I-23, (2E)-3-(4-Fluorophenyl)-1-[2-methoxy-4,6-bis(2-propenyloxy)phenyl]-2-propen-1-one] was 1.5.
Take `C=CCOc1cc(OC)c(C(=O)/C=C/c2ccccn2)c(OCC=C)c1` [Compound I-27, (2E)-1-[2-Methoxy-4,6-bis(2-propenyloxy)phenyl]-3-(2-pyridinyl)-2-propen-1-one]: the SI came to 11.4 in series [1], 1.49 in series [2] (setting [3]) and 1.5 in series [2] (setting [4]).
Consider `C=CCOc1cc(/C=C/C(=O)c2c(O)cc(O)cc2OC)cc(OCC=C)c1Br` [Compound I-42, (2E)-3-(3,5-Bis(2-propenyloxy)-4-bromophenyl)-1-(2,4-dihydroxy-6-methoxyphenyl)-2-propen-1-one], for which, in series [1], the SI was 10.5.
Turning to `C(=N/Nc1ncnc2sc3c(c12)CCCC3)/c1ccccc1` [II-01], in series [2] (setting [3]), the SI was 7.40.
For `C(=Cc1ccccc1)C=NNc1ncnc2sc3c(c12)CCCC3` [II-04], the “Selectivity Index” value in series [1] was 0.1. Moreover, the “Selectivity Index Lab B” value in series [2] was 14.6. In addition, in the series on M. tuberculosis H37Rv, the “Selectivity Index H37Rv” value stood at 0.1.
Consider `Cc1ccc(C=NNc2ncnc3sc4c(c23)CCCC4)cc1` [II-05], for which the “Selectivity Index” value in series [1] was determined as 0.5.
For the molecule `COc1cc(/C=N\Nc2ncnc3sc4c(c23)CCCC4)cc(OC)c1O` [II-16], the SI in series [2] (setting [3]) was 14.19.
`FC(F)(F)c1ccccc1C=NNc1ncnc2sc3c(c12)CCCC3` [II-25]: in series [1], the “Selectivity Index” value is given as 2.6. In addition, the “Selectivity Index Lab B” value in series [2] is on record as 0.6. Further, the “Selectivity Index H37Rv” value in the series on M. tuberculosis H37Rv was 1.3 (1.3).
The like results for `Fc1ccc(C=NNc2ncnc3sc4c(c23)CCCC4)cc1` [II-26] were, in that order, 1.0, 1.0 and 0.6.
In turn, `Fc1ccccc1/C=N\Nc1ncnc2sc3c(c12)CCCC3` [II-27] yielded an SI in series [2] (setting [3]) of 1.60.
In the case of `Clc1ccc(/C=N\Nc2ncnc3sc4c(c23)CCCC4)cc1` [II-28], the SI in series [2] (setting [3]) was determined as 4.15.
Take `N#Cc1ccc(C=NNc2ncnc3sc4c(c23)CCCC4)cc1` [II-32]: the “Selectivity Index” value in series [1] (Table 8b) was 5.0.
For `CC(C)(C)C=NNc1ncnc2sc3c(c12)CCCC3` [II-36], the “Selectivity Index” value in series [1] is listed as 1.6. Besides, the “Selectivity Index H37Rv” value in the series with M. tuberculosis H37Rv was 0.3.
On to `CC(C)=NNc1ncnc2sc3c(c12)CCCC3` [II-44], for which, in series [1] (Table 8b), the “Selectivity Index” value was 5.9. In addition, the “Selectivity Index Lab B” value in series [2] stood at 2.7. Besides, the “Selectivity Index H37Rv” value in the series with M. tuberculosis H37Rv worked out at 0.5.
The molecule `CC1CS(=O)(=O)CCN1/N=C/c1ccc([N+](=O)[O-])o1` (stereo not shown) [Nifurtimox, reference compound] came in with an SI in series [2] of 154.0.
`NNc1ncnc2sc3c(c12)CCCC3` [PC]: the “Selectivity Index” value in series [1] (Table 8b) came to 0.6. In addition, in series [2], the “Selectivity Index Lab B” value was determined as 1.9. Besides, the “Selectivity Index H37Rv” value with M. tuberculosis H37Rv is listed as 0.3.
